Source: patent US12635689B2, “Antifungal compositions” (priority 2019, dated 2026)

Key:
[1] = system: Magnaporthe oryzae mitochondria; experiment: Mitochondrial potential; details: M. oryzae
M. oryzae germlings = experiment: Conidia germination and appressorium formation on glass slides; details: for germination and appressorium formation of M. oryzae germlings: 3 h on glass slides

Substance	mitochondrial potential [1]	germination and appressorium formation of M. oryzae germlings (M. oryzae germlings)	relative effectiveness in inhibiting germination and appressoria (M. oryzae germlings)
dodecylguanidinium	depolarisation of the mitochondria	suppress germination and abolish appressorium formation	
dodecyltriphenylphosphonium	reduce the mitochondrial potential		
octadecyldimethylsulfonium		suppress germination and abolish appressorium formation	
octadecyltrimethylammonium		suppress germination and abolish appressorium formation	slightly more effective than C18-DMS+
